Compound potency records, mixed from different reports. Data source: NIAID ChemDB in PubChem.

All rows: whole-cell or culture tests; agent: HIV-1; cells: MT-4; read by: p24; measure: EC95

ECn is the concentration giving n% inhibition of infection, replication or growth.

SMILES,strain or isolate,mutations,result
O=C(CSc1nnnn1-c1ccccc1-c1ccccc1)Nc1ccccc1Cl,-,-,<10 µM
CC(C)n1c(=O)c(O)c2n(c1=O)CCN(Cc1ccccn1)C2=O,-,-,<10 µM
CC(C)[C@H](NC(=O)OCc1ccccn1)C(=O)N[C@@H](Cc1ccccc1)[C@@H](O)C[C@H](Cc1ccccc1)NC(=O)OCc1cccnc1,NL4-3,PR-L10R M46I L63P 184V,1.5 µM
CN(CC(=O)Nc1ccccc1[N+](=O)[O-])c1nnnn1-c1cccc2ccccc12,-,-,<10 µM
CCNC(=O)c1cc(F)ccc1CNC(=O)c1nc(N2CCCCS2(=O)=O)c2cccnc2c1O,-,-,<5 µM
N#Cc1cc(Cl)cc(Oc2cc(OCc3[nH]nc4nc(N)ccc34)cc(F)c2Cl)c1,-,-,<20 µM
CC(C)Cn1c(C(=O)N(C)C)c2c(c(O)c1=O)C(=O)N(Cc1ccc(F)c(Cl)c1)CC2,-,-,≤10 µM
COc1ccc(-n2c(=O)c(O)c3n(c2=O)CCN(Cc2ccc(F)cc2)C3=O)cc1,-,-,<10 µM
CN(C)CC1NCCn2c1nc(C(=O)NCc1ccc(F)cc1)c(O)c2=O,-,-,<50 µM
CN(C)C(=O)c1c2c(c(O)c(=O)n1C)C(=O)N(Cc1ccc(F)cc1)CC2,-,-,≤10 µM
C[C@H]1O[C@@H](CO)O[C@@H]1n1cnc2c(N)nc(N)nc21,-,-,>10 µM
Cc1cc(C)c(-n2nnnc2SCC(=O)Nc2ccccc2N)c(C)c1,-,-,<10 µM
O=C1c2c(O)c(=O)n(C3CCCC3)c(=O)n2CCN1Cc1ccc(F)cc1,-,-,<10 µM
CN(C)CCN1CCn2c(nc(C(=O)NCc3ccc(F)cc3)c(O)c2=O)C1(C)C,-,-,<1 µM
CCN(CC)C(=O)c1c2c(c(O)c(=O)n1C)C(=O)N(Cc1ccc(F)cc1)CC2,-,-,≤10 µM
CN(C)C(=O)C(=O)N(C)C1CN(C2CCCC2)CCn2c1nc(C(=O)NCc1ccc(F)cc1)c(O)c2=O,-,-,<1 µM
CC(C)n1c(=O)c(O)c2n(c1=O)C(CCN(C)S(C)(=O)=O)CN(Cc1ccc(F)cc1)C2=O,-,-,<10 µM
COC(=O)c1ccc(NC(=O)CSc2nnnn2-c2c(C)cc(C)cc2C)c(Cl)c1,-,-,<10 µM
CN(C)S(=O)(=O)c1ccc2c(c1)CCN2C(=O)COc1cc(Cl)cc(Oc2cc(Cl)cc(C#N)c2)c1,-,-,<20 µM
O=C(NCc1ccc(F)cc1)c1nc2n(c(=O)c1O)CCNC21CCOCC1,-,-,<1 µM
C[C@@H]1O[C@H](CO)O[C@H]1n1cnc2c(=O)[nH]c(N)nc21,-,-,>10 µM
CNC(=O)c1ccccc1CNC(=O)c1nc(N2CCCCS2(=O)=O)c2cccnc2c1O,-,-,<5 µM
CC(=O)N(C)C1COCCn2c1nc(C(=O)NCc1ccc(F)cc1)c(O)c2=O,-,-,<1 µM
CN(C)C(=O)c1c2c(c(O)c(=O)n1C)C(=O)N(Cc1ccc(F)c(Cl)c1)CC2,-,-,≤10 µM
O=C1c2c(O)c3n(c2CCN1Cc1ccc(F)cc1)CCN(Cc1ccc(F)cc1)C3=O,-,-,≤10 µM
CC(C)NC(=O)c1cc(F)ccc1CNC(=O)c1nc(N2CCCCS2(=O)=O)c2cccnc2c1O,-,-,<5 µM
NS(=O)(=O)c1ccc(NC(=O)CSc2nnnn2-c2cc(Cl)ccc2Cl)c(Cl)c1,-,-,<10 µM
O=C(NCc1ccc(F)cc1)c1nc2n(c(=O)c1O)CCNC2,-,-,<50 µM
N#Cc1cc(Cl)cc(Oc2cc(Cl)cc(OCC(=O)Nc3ccc4[nH]cnc4c3Cl)c2)c1,-,-,<20 µM
O=C1Nc2ccc(Cl)cc2[C@](C#Cc2ccccc2)(C(F)(F)F)O1,IIIB,-,>0.2 µM
CC1(C)c2nc(C(=O)NCc3ccc(F)cc3)c(O)c(=O)n2CCN1CC(=O)N1CCOCC1,-,-,<1 µM
N#Cc1cc(Cl)cc(Oc2cc(CCc3[nH]nc4ncccc34)ccc2Cl)c1,-,-,<20 µM
CN(C)C(=O)c1[nH]c(=O)c(O)c2c1CCN(Cc1ccc(F)cc1)C2=O,-,-,≤10 µM
Cc1cc(C)c(-n2nnnc2SCC(=O)Nc2ccc(S(N)(=O)=O)cc2C)c(C)c1,-,-,<10 µM
O=C(NCc1ccc(F)cc1)c1nc2n(c(=O)c1O)CCN(Cc1ccccc1)CC2,-,-,<50 µM
C[C@H]1O[C@@H](CO)O[C@H]1n1cnc2c(N)nc(N)nc21,-,-,>10 µM

5 of the rows above, restated:

{"SMILES": "N#Cc1cc(Cl)cc(Oc2cc(OCc3[nH]nc4nc(N)ccc34)cc(F)c2Cl)c1", "result": "<20 µM"}
{"SMILES": "CC(C)Cn1c(C(=O)N(C)C)c2c(c(O)c1=O)C(=O)N(Cc1ccc(F)c(Cl)c1)CC2", "result": "≤10 µM"}
{"SMILES": "CC(C)NC(=O)c1cc(F)ccc1CNC(=O)c1nc(N2CCCCS2(=O)=O)c2cccnc2c1O", "result": "<5 µM"}
{"SMILES": "O=C(NCc1ccc(F)cc1)c1nc2n(c(=O)c1O)CCNC2", "result": "<50 µM"}
{"SMILES": "CN(C)S(=O)(=O)c1ccc2c(c1)CCN2C(=O)COc1cc(Cl)cc(Oc2cc(Cl)cc(C#N)c2)c1", "result": "<20 µM"}

Lines come from different laboratories, so protocols vary. An empty or dashed field is not shown.